The test has as its system HIV-1. As to the kind of experiment: In vitro anti-HIV-1 activity in MT-2 cells. As to conditions: read-out: HIV IC50; Table 5 (selected IC50 data from Table 4).

pIC50: −log10 of the molar value.

In general, pIC50 refers to the IC50 on a negative log10 scale, so that one unit is a factor of ten.

As to `CC(C)OC(=O)OCOP(=O)(CO[C@H](C)Cn1cnc2c(N)ncnc21)OCOC(=O)OC(C)C` [compound 7], the pIC50 is 7.30.

Values taken from patent publication US7803788B2, “Prodrugs of phosphonate nucoleotide analogues” (Gilead Sciences, Inc., priority 2000, dated 2010).
